According to the supplement of paper PMC9931576:
Human monoclonal antibodies against the spike receptor-binding domain (heavy:light variable regions). IC50 against pseudoviruses bearing the spike of naturally observed variants; lower = stronger; >10 µg/ml means not reached at the top dose. No active / inactive call. The stated detection limit is 0.0005 µg/ml; values near or below 0.001 µg/ml lie at the floor of the assay.

Experiments:
Assay in all cases: pseudovirus neutralization IC50; higher = weaker neutralization
[1] = molecular target: SARS-CoV-2 Omicron BA.1 spike pseudovirus
Experimental: (§1)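 Single-round VSV luciferase pseudovirus mixed with antibody dilutions for 1 h and put on Huh-7 cells for about a day; IC50 from the dose curve.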

[2] = molecular target: SARS-CoV-2 Omicron BA.2 spike pseudovirus
Experimental: as §1

[3] = molecular target: SARS-CoV-2 Omicron BA.2.75 spike pseudovirus
Experimental: as §1

[4] = molecular target: SARS-CoV-2 Omicron BA.2.75.2 spike pseudovirus
Experimental: as §1

[5] = molecular target: SARS-CoV-2 Omicron BA.5 spike pseudovirus
Experimental: as §1

[6] = molecular target: SARS-CoV-2 Omicron BM.1.1.1 spike pseudovirus
Experimental: as §1

[7] = molecular target: SARS-CoV-2 Omicron BQ.1.1 spike pseudovirus
Experimental: as §1

[8] = molecular target: SARS-CoV-2 Omicron BR.2 spike pseudovirus
Experimental: as §1

[9] = molecular target: SARS-CoV-2 Omicron CA.1 spike pseudovirus
Experimental: as §1

[10] = molecular target: SARS-CoV-2 Omicron XBB spike pseudovirus
Experimental: as §1

[11] = molecular target: SARS-CoV-2 early D614G spike pseudovirus
Experimental: as §1

B1: BD56-799 (protein)
chain 1: QVQLQESGPGLVKPSETLSLTCTVSGDSVSGYYWSWIRQPPRKGLEWIGFLYYSGSTDYNPSLKSRVTISLDTSKNQFSLMLRSVTAADTAVYYCVRGGDHGDYFDYWGQGTLVTVSS
chain 2: DIVMTQSPDSLAVSLGERATINCKSSQSVLYSSNNKNYLAWYQQKPGEPPKLLIYWASTRESGVPDRFSGSGSGTDFTLTISSLQAEDVALYYCQQYHSTPLTFGGGTKVEIK
pseudovirus neutralization IC50 [1]: 0.000826 µg/mL | pseudovirus neutralization IC50 [2]: > 10 µg/mL | pseudovirus neutralization IC50 [3]: > 10 µg/mL | pseudovirus neutralization IC50 [4]: > 10 µg/mL | pseudovirus neutralization IC50 [5]: > 10 µg/mL | pseudovirus neutralization IC50 [6]: > 10 µg/mL | pseudovirus neutralization IC50 [7]: > 10 µg/mL | pseudovirus neutralization IC50 [8]: > 10 µg/mL | pseudovirus neutralization IC50 [9]: > 10 µg/mL | pseudovirus neutralization IC50 [10]: > 10 µg/mL | pseudovirus neutralization IC50 [11]: > 10 µg/mL

B2: BD56-817 (protein)
chain 1: EVQLLESGGGLVQPGGSLRLSCAASGFTFSNYAMSWVRQAPGKGLEWVSAISGTGGSTYYADSVKGRFTISRDNSKNTLSLQMNSLKAEDTAVYYCASPGAGGAFDIWGQGTKVTVSS
chain 2: DIQMTQSPSTLSASVGDGVTITCRASQSISTWLAWYQQKPGKAPKLLIYQASSLESGVPSRFSGSGSGTEFTLTISSLQPDDFATYYCQQYNSYSPWTFGPGTKVEIK
pseudovirus neutralization IC50 [1]: 0.00748 µg/mL | pseudovirus neutralization IC50 [2]: 0.0318 µg/mL | pseudovirus neutralization IC50 [3]: > 10 µg/mL | pseudovirus neutralization IC50 [4]: > 10 µg/mL | pseudovirus neutralization IC50 [5]: > 10 µg/mL | pseudovirus neutralization IC50 [6]: > 10 µg/mL | pseudovirus neutralization IC50 [7]: > 10 µg/mL | pseudovirus neutralization IC50 [8]: > 10 µg/mL | pseudovirus neutralization IC50 [9]: > 10 µg/mL | pseudovirus neutralization IC50 [10]: > 10 µg/mL | pseudovirus neutralization IC50 [11]: > 10 µg/mL

B3: BD56-789 (protein)
chain 1: QVQLVQSGAEVKKPGSSVKVSCKASGGTFSSYAITWVRQAPGQGLEWMGRIIPILDITKYAQKFQGRVTITADKSTSTAYMELSSLRSEDTAVYYCTRREEIDDYWGQGTLVTVSS
chain 2: SYELTQPPSVSVSPGQTASITCSGDKLGDKYAHWYQQKPGQSPVLVIYEDNKRPSGIPERFSGSNSGNTATLTISGTQAMDEADYYCQAWDSSTEVFGTGTKVTVL
pseudovirus neutralization IC50 [1]: 0.00102 µg/mL | pseudovirus neutralization IC50 [2]: 0.000704 µg/mL | pseudovirus neutralization IC50 [3]: 0.00129 µg/mL | pseudovirus neutralization IC50 [4]: > 10 µg/mL | pseudovirus neutralization IC50 [5]: > 10 µg/mL | pseudovirus neutralization IC50 [6]: > 10 µg/mL | pseudovirus neutralization IC50 [7]: > 10 µg/mL | pseudovirus neutralization IC50 [8]: > 10 µg/mL | pseudovirus neutralization IC50 [9]: > 10 µg/mL | pseudovirus neutralization IC50 [10]: > 10 µg/mL | pseudovirus neutralization IC50 [11]: > 10 µg/mL

B4: BD56-825 (protein)
chain 1: QVQLQESGPGLVKPSQTLSLTCTVSGGSISSGGFYWSWIRQHPGKGLEWIGHISYSGNTYYNPSLKSRVTISADTSKNQFSLKLSSVTAADTAVYYCARDLTGWFDPWGQGTLVTVSS
chain 2: EIVLTQSPGTLSLSPGERATLSCRASQSVSSFYLAWYQQKPGQAPRLLIYGASSRATGIPDRFRGSGSGTDFTLTISRLEPEDFAVYYCQQYGSSYTFGQGTKLEIK
pseudovirus neutralization IC50 [1]: 0.00221 µg/mL | pseudovirus neutralization IC50 [2]: 0.00361 µg/mL | pseudovirus neutralization IC50 [3]: > 10 µg/mL | pseudovirus neutralization IC50 [4]: > 10 µg/mL | pseudovirus neutralization IC50 [5]: > 10 µg/mL | pseudovirus neutralization IC50 [6]: > 10 µg/mL | pseudovirus neutralization IC50 [7]: > 10 µg/mL | pseudovirus neutralization IC50 [8]: > 10 µg/mL | pseudovirus neutralization IC50 [9]: > 10 µg/mL | pseudovirus neutralization IC50 [10]: > 10 µg/mL | pseudovirus neutralization IC50 [11]: > 10 µg/mL

B5: BD56-797 (protein)
chain 1: QVQLVESGGGVVQPGRSLRLSCAASEFTFSSFAMHWVRQAPGKGLEWVALISYDGSNKYYADSVKGRFTISRDNSKNTLDLQMNSLRAEDMAVYYCARDRWGSSSSLGCFDLWGRGTLVTVSS
chain 2: DIQMTQSPSSLSASVGDRVTITCQASQDIGNYLNWYQQKPGKAPKLLIYDASNLETGVPSRFSGSGSGTDFTFTISSLQPEDIATYYCQQFDNGFALTFGGGTKVEIK
pseudovirus neutralization IC50 [1]: 0.00145 µg/mL | pseudovirus neutralization IC50 [2]: 0.0028 µg/mL | pseudovirus neutralization IC50 [3]: > 10 µg/mL | pseudovirus neutralization IC50 [4]: > 10 µg/mL | pseudovirus neutralization IC50 [5]: 1.35 µg/mL | pseudovirus neutralization IC50 [6]: > 10 µg/mL | pseudovirus neutralization IC50 [7]: > 10 µg/mL | pseudovirus neutralization IC50 [8]: > 10 µg/mL | pseudovirus neutralization IC50 [9]: > 10 µg/mL | pseudovirus neutralization IC50 [10]: > 10 µg/mL | pseudovirus neutralization IC50 [11]: > 10 µg/mL

B6: BD56-823 (protein)
chain 1: QVQLQESGPGLVKPSGTLSLTCAVSGGSISSSNWWSWVRQPPGKGLEWIGEIYHSGSTNYNPSLKSRVTISVDKSKNQFSLKLSSVTAADTALYYCARDRFGDLDYPHYYYAMDVWGQGTTVTVSS
chain 2: DIQMTQSPSSLSASVGDRVTITCRASQGISNSLAWYQQKPGKAPKLLLYTASTLESGVPSRFSGSGSGTDYTLTISSLQPEDFATYYCQQFYSTPRTFGQGTKVEIK
pseudovirus neutralization IC50 [1]: 0.0117 µg/mL | pseudovirus neutralization IC50 [2]: 0.0149 µg/mL | pseudovirus neutralization IC50 [3]: > 10 µg/mL | pseudovirus neutralization IC50 [4]: > 10 µg/mL | pseudovirus neutralization IC50 [5]: > 10 µg/mL | pseudovirus neutralization IC50 [6]: > 10 µg/mL | pseudovirus neutralization IC50 [7]: > 10 µg/mL | pseudovirus neutralization IC50 [8]: > 10 µg/mL | pseudovirus neutralization IC50 [9]: > 10 µg/mL | pseudovirus neutralization IC50 [10]: > 10 µg/mL | pseudovirus neutralization IC50 [11]: > 10 µg/mL

B7: BD56-785 (protein)
chain 1: QLQLQESGPGLVKPSETLSLTCAVSGGSVSGGDNYYWGWIRQPPGKGLEWIGTIYYSGSTYYNPSLRSRVTISVDTSKNQFSLKLSSVTAADTAVYYCARINRGDFDYWGQGTLVTVSS
chain 2: DIQMTQSPSSLSASVGDRVTITCQASQDIINYLNWYQQKPGKAPKLLIYDASNLETGVPSRFSGSGSGTDFTFTISSLQPEDIATYYCQQYDNLALTFGGGTKVEIK
pseudovirus neutralization IC50 [1]: 0.000981 µg/mL | pseudovirus neutralization IC50 [2]: 0.000741 µg/mL | pseudovirus neutralization IC50 [3]: > 10 µg/mL | pseudovirus neutralization IC50 [4]: > 10 µg/mL | pseudovirus neutralization IC50 [5]: > 10 µg/mL | pseudovirus neutralization IC50 [6]: > 10 µg/mL | pseudovirus neutralization IC50 [7]: > 10 µg/mL | pseudovirus neutralization IC50 [8]: > 10 µg/mL | pseudovirus neutralization IC50 [9]: > 10 µg/mL | pseudovirus neutralization IC50 [10]: > 10 µg/mL | pseudovirus neutralization IC50 [11]: > 10 µg/mL

B8: BD56-268 (protein)
chain 1: QVTLRESGPALVKPTQTLTLTCTFSGFSLNTSGMCVSWIRQPPGKALEWLALIDWDDDKYYSTSLKTRLTISKDTSKNQVVLTMTNMDPVDTATYYCTRMVGELTDYAFDIWGQGTMVTVSS
chain 2: SYELTQPPSVSVSPGQTARITCSGDALPMQYAYWYQQKPGQAPVLVIYKDSERPSGIPERFSGSSSGTTVTLTISGVQAEDEADYYCQSADSSGTPVVFGGGTKLTVL
pseudovirus neutralization IC50 [1]: 0.026 µg/mL | pseudovirus neutralization IC50 [2]: 0.046 µg/mL | pseudovirus neutralization IC50 [3]: 0.0449 µg/mL | pseudovirus neutralization IC50 [4]: 0.0435 µg/mL | pseudovirus neutralization IC50 [5]: 0.041 µg/mL | pseudovirus neutralization IC50 [6]: 0.0566 µg/mL | pseudovirus neutralization IC50 [7]: > 10 µg/mL | pseudovirus neutralization IC50 [8]: 0.0522 µg/mL | pseudovirus neutralization IC50 [9]: 0.0496 µg/mL | pseudovirus neutralization IC50 [10]: 0.965 µg/mL | pseudovirus neutralization IC50 [11]: > 10 µg/mL

B9: BD56-353 (protein)
chain 1: QVQLVQSGAEVKKPGSSVQVSCKASGGTFSSYAISWVRQAPGQGLEWMGGIIPMFRTAIYAQMFQGRVTITADESTGTAYMELSSLRSEDTALYYCARDSSPRGSRGGIEYFQHWGQGTLVTVSS
chain 2: DIQMTQSPSSLSASVGDRVTITCQASQDISNYLNWYQQKPGKAPKLLIYDASNLETGVPSRFSGSGSGTDFTFTISSLQPEDIATYYCQQYDDLLTFGQGTKLQIK
pseudovirus neutralization IC50 [1]: 0.000254 µg/mL | pseudovirus neutralization IC50 [2]: 0.000183 µg/mL | pseudovirus neutralization IC50 [3]: 0.000586 µg/mL | pseudovirus neutralization IC50 [4]: 0.239 µg/mL | pseudovirus neutralization IC50 [5]: 0.266 µg/mL | pseudovirus neutralization IC50 [6]: 4.13 µg/mL | pseudovirus neutralization IC50 [7]: 6.2 µg/mL | pseudovirus neutralization IC50 [8]: 0.0024 µg/mL | pseudovirus neutralization IC50 [9]: 0.28 µg/mL | pseudovirus neutralization IC50 [10]: 3.32 µg/mL | pseudovirus neutralization IC50 [11]: > 10 µg/mL

B10: BD56-804 (protein)
chain 1: EVQLVESGGGLIQPGGSLRLSCAASGLTVSSNYMSWVRQAPGKGLEWVSVMYSGGSTFYADSVKGRFTISRDNSNNTLYLEMNSLRAEDTAVYYCARIAVAHDAFDIWGQGTMVTVSS
chain 2: QSVLTQPPSVSAAPGQKVTISCSGSSSNIGNNYVSWYQQLPGTAPKLLIYDNNKRPSGIPDRFSGSQSGTSATLGITGLQTGDAADYYCGTWDSSLSAGVFGGGTQLTVL
pseudovirus neutralization IC50 [1]: 0.0117 µg/mL | pseudovirus neutralization IC50 [2]: > 10 µg/mL | pseudovirus neutralization IC50 [3]: > 10 µg/mL | pseudovirus neutralization IC50 [4]: > 10 µg/mL | pseudovirus neutralization IC50 [5]: > 10 µg/mL | pseudovirus neutralization IC50 [6]: > 10 µg/mL | pseudovirus neutralization IC50 [7]: > 10 µg/mL | pseudovirus neutralization IC50 [8]: > 10 µg/mL | pseudovirus neutralization IC50 [9]: > 10 µg/mL | pseudovirus neutralization IC50 [10]: > 10 µg/mL | pseudovirus neutralization IC50 [11]: > 10 µg/mL
